Anti-infective test results gathered from many reports (values: NIAID ChemDB through PubChem).

All rows: tests in culture; agent: Cryptococcus neoformans; read-out: MIC100

Blank or dashed fields: not listed here.

smiles | read by | strain | value
C[C@H]1[C@H](O)[C@@H](C)/C=C/C=C/C=C/C=C/C=C/C=C/C=C/[C@H](O[C@@H]2O[C@H](C)[C@@H](O)[C@H](N)[C@@H]2O)C[C@@H]2O[C@](O)(C[C@@H](O)C[C@@H](O)CC[C@H](O)[C@@H](O)C[C@@H](O)CC(=O)O[C@H]1C)C[C@H](O)[C@H]2C(=O)O | broth dilution | MTCC 4406 | 0.25 µg/mL
CC1CC(c2ccncc2)Nc2ccc(Br)cc21 | - | ATCC 32264 | >250 µg/mL
COc1ccccc1-c1cc2cc(C)cnc2[nH]1 | - | ATCC90112 | 3.9 µg/mL
C[C@H]1[C@H](O)[C@@H](C)/C=C/C=C/C=C/C=C/C=C/C=C/C=C/[C@H](O[C@@H]2O[C@H](C)[C@@H](O)[C@H](N)[C@@H]2O)C[C@@H]2O[C@](O)(C[C@@H](O)C[C@@H](O)CC[C@H](O)[C@@H](O)C[C@@H](O)CC(=O)O[C@H]1C)C[C@H](O)[C@H]2C(=O)O | broth dilution / absorbance | ATCC 32264 | 0.25 µg/mL
Brc1cnc2[nH]c(CN3CCOCC3)cc2c1 | - | ATCC90112 | 8 µg/mL
CC(C)C[C@@H]1NC(=O)[C@H](C(C)C)NC1=O | broth dilution | - | 16 µg/mL
COc1c(O)ccc2c(=O)c3c(O)cc4c(c3oc12)C(C)(C)C(C)O4 | broth dilution | - | >64 µg/mL
Clc1cnc2[nH]ccc2c1 | - | ATCC90112 | 15.6 µg/mL
COc1ccc(-c2c3c(N)c4c(nc3nc3c2c(C)nn3-c2ccccc2)CCCCC4)cc1 | broth dilution / absorbance | ATCC 32264 | >250 µg/mL
COc1cc(C2Oc3ccc4c(=O)c5c(O)cc(O)cc5oc4c3OC2CO)cc(OC)c1O | broth dilution | - | >64 µg/mL
Cc1nn(-c2ccccc2)c2nc3nc4c(c(N)c3c(-c3ccc(Cl)cc3)c12)CCC4 | broth dilution / absorbance | ATCC 32264 | >250 µg/mL
FC(F)(F)c1cc(-c2cc3cc(Br)cnc3[nH]2)cc(C(F)(F)F)c1 | - | ATCC90112 | 15.6 µg/mL
COc1ccc(-c2c3c(N)c4c(nc3nc3c2c(C)nn3-c2ccccc2)CCC4)cc1 | broth dilution / absorbance | ATCC 32264 | >250 µg/mL
CNC(=S)N/N=C(\N)c1ccccn1 | - | ATCC 24067A | 104 µM
Cc1nn(-c2ccccc2)c2nc3nc4c(c(N)c3c(-c3ccc(Cl)cc3)c12)CCCCC4 | broth dilution / absorbance | ATCC 32264 | 250 µg/mL
O=C(Oc1cc2cc(Br)cnc2[nH]1)c1ccccc1 | - | ATCC90112 | 7.8 µg/mL

A second listing of 2 rows from above:

smiles	read by	strain	value
Cc1nn(-c2ccccc2)c2nc3nc4c(c(N)c3c(-c3ccc(Cl)cc3)c12)CCCCC4	broth dilution / absorbance	ATCC 32264	250 µg/mL
C[C@H]1[C@H](O)[C@@H](C)/C=C/C=C/C=C/C=C/C=C/C=C/C=C/[C@H](O[C@@H]2O[C@H](C)[C@@H](O)[C@H](N)[C@@H]2O)C[C@@H]2O[C@](O)(C[C@@H](O)C[C@@H](O)CC[C@H](O)[C@@H](O)C[C@@H](O)CC(=O)O[C@H]1C)C[C@H](O)[C@H]2C(=O)O	broth dilution	MTCC 4406	0.25 µg/mL

MIC50, MIC90 and the like: level of inhibition, or share of isolates inhibited. Rows are shuffled and stem from different studies.